Reference: paper PMC7447754 (Nature Communications, 2020)

Tested on: SARS-CoV-2
Assay: Transmission electron microscopy assay of viral particles
Settings: SARS-CoV-2 premixed with peptide 1 h room temperature, negative staining; 200 μg ml-1 or 100 μg ml^−1

## CC[C@H](C)[C@H](NC(=O)[C@H](C)NC(=O)CNC(=O)[C@@H](N)CC(N)=O)C(=O)N[C@@H](CS)C(=O)N[C@@H](Cc1c[nH]c2ccccc12)C(=O)NCC(=O)N1CCC[C@H]1C(=O)N[C@@H](CS)C(=O)N1CCC[C@H]1C(=O)N[C@H](C(=O)N[C@@H](C)C(=O)N[C@@H](Cc1ccccc1)C(=O)N[C@@H](CCCNC(=N)N)C(=O)N[C@@H](CCC(N)=O)C(=O)N[C@H](C(=O)NCC(=O)N[C@@H](CC(N)=O)C(=O)N[C@@H](CS)C(=O)NCC(=O)N[C@@H](CCCNC(=N)N)C(=O)N[C@@H](Cc1ccccc1)C(=O)N[C@@H](CCCNC(=N)N)C(=O)N[C@H](C(=O)N[C@@H](CCCNC(=N)N)C(=O)N[C@@H](CS)C(=O)N[C@@H](CS)C(=O)N[C@@H](CCCNC(=N)N)C(=O)N[C@H](C(=O)N[C@@H](CCCNC(=N)N)C(=O)O)[C@@H](C)CC)C(C)C)[C@@H](C)CC)[C@@H](C)O [P9R]
  disruption of viral particles under TEM: did not disrupt viral particles
